A mixed list of measured activities; the numbers were collected in NIAID ChemDB.

Common to all: growth or infection tests; species: HIV-1

ECn: concentration that inhibits the pathogen or its effect by n%. Blank or dashed fields: not listed here. Lines come from different laboratories, so protocols vary.

compound,mutations,cell line,strain,endpoint,method,value
Cc1ccnc2c1NC(=O)c1cccnc1N2C1CC1,RT-D67N K70R L100I T215Y K219Q,CEM + CEM-SS,4XAZT+L100I (RT D67N K70R L100I T215Y K219Q),EC50,cytopathic effect / XTT,0.03 µM
Cc1cc(/C=C/c2ccccc2)cc(C)c1Oc1ccnc(Nc2ccc(C#N)cc2)n1,F227L + V106A,MT-4,IIIB,EC50,MTT,>18.5 µM
C[C@H](C[n+]1c[nH]c2c(NCCCCCCCC3CCCCC3)nc(N)nc21)OCP(=O)(O)O,,CEM,IIIB,EC50,cytopathic effect / MTT,20 ± 17 µg/mL
CCc1cc(NCc2nc3c(Cl)ccc(Cl)c3o2)c(=O)[nH]c1C,,H9,IIIB,EC50,p24,<0.2 µM
Nc1nc(=O)n([C@@H]2CS[C@H](CO)O2)cc1F,RT-V75T,CD4+HELA + HeLa,HXB2,EC50,plaque count,0.28 ± 0.1 µM
Nc1ccn([C@H]2CC[C@@H](CO)O2)c(=O)n1,RT-E138A,MT-4,Recombinant mutant,EC50,cytopathic effect / MTT,3.886 µM
CCc1c(Sc2ccccn2)n(COCc2ccccc2)c(=O)[nH]c1=O,RT-L100I,CEM + CEM-SS,IIIB,EC50,cytopathic effect / XTT,0.3 µM
CCCCNc1nc(N)nc2c1[nH]c[n+]2C[C@@H](C)OCP(=O)(O)O,,MT-4,IIIB,EC50,cytopathic effect / MTT,13.1 ± 4.3 µg/mL
Cc1cn([C@H]2C[C@H](N=[N+]=[N-])[C@@H](CO)O2)c(=O)[nH]c1=O,,CEM + CEM-SS,NL4-3,EC50,cytopathic effect / XTT,0.001 µM
Nc1nc(=O)n([C@@H]2CC[C@H](CO)O2)cc1F,,HT4 + HT4 LacZ-1,HXB2,EC50,,0.4 µM
Cc1cc(C#Cc2ccccc2)cc(C)c1Oc1ccnc(NC2CCN(Cc3ccc(S(N)(=O)=O)cc3)CC2)n1,K103N,MT-4,IIIB,EC50,MTT,0.024 µM
CC(C)[C@H](NC(=O)[C@H](C)N)C(=O)NCC(=O)O,,HeLa + HELA CD4+,BH10,EC50,syncytia,~750 µM
C[C@H](Cn1cnc2c(N)ncnc21)OCP(=O)(O)O,,MT-2,IIIB,EC50,XTT,0.015 µM
C1CNCCNCCCN[C@H]([C@@H]2CNCCCNCCNCCCN2)CNC1,,MT-4,HE,EC50,cytopathic effect / MTT,0.29 µM
O=S1(=O)NC(c2c(Cl)cccc2Cl)c2cccn2-c2ccc(Cl)cc21,,MT-4,IIIB,EC50,cytopathic effect / MTT,>200 µM
Cc1cn([C@H]2C[C@H](N=[N+]=[N-])[C@@H](CO)O2)c(=O)[nH]c1=O,RT-L74V,PBMC,,EC50,p24,0.003 µM
Cc1cn([C@H]2C[C@H](N=[N+]=[N-])[C@@H](CO)O2)c(=O)[nH]c1=O,,CEM + CEM-SS,PM16,EC50,cytopathic effect / MTT,0.014 µM
O=c1[nH]cnc2c1ncn2[C@H]1CC[C@@H](CO)O1,,PBMC,Ba-L Laboratory isolate,EC50,p24,1.5 µM
Cc1cn([C@H]2CC(N=[N+]=[N-])[C@@H](OCP(=O)(O)O)O2)c(=O)[nH]c1=O,,MT-2,IIIB,EC50,cytopathic effect / XTT,>200 µM
O=c1[nH]cnc2c1ncn2[C@H]1CC[C@@H](CO)O1,RT-E138A,MT-4,Recombinant mutant,EC50,cytopathic effect / MTT,11.2 µM
O=C1c2cccn2-c2ccc(Cl)cc2S(=O)(=O)N1C/C=C/c1ccccc1,,MT-4,IIIB,EC50,cytopathic effect / MTT,10 µM
CCC(C)Nc1nc(N)nc2c1[nH]c[n+]2C[C@@H](C)OCP(=O)(O)O,,MT-4,IIIB,EC50,cytopathic effect / MTT,30 ± 19 µg/mL
CCCc1cc(=O)oc2c3c(c4c(c12)OC(C)(C)C=C4)O[C@H](C)[C@@H](C)[C@@H]3O,RT-Y181C,CEM + CEM-SS,IIIB,EC50,cytopathic effect / XTT,0.1 µM
Cc1cc(C#Cc2cccc(N)c2)cc(C)c1Oc1ccnc(NC2CCN(Cc3cccc(C(N)=O)c3)CC2)n1,L100I,MT-4,IIIB,EC50,MTT,>0.63 µM
CC(C)(C)NC(=O)[C@@H]1C[C@@H]2CCCC[C@@H]2CN1C[C@@H](O)[C@H](Cc1ccccc1)NC(=O)[C@H](CC(N)=O)NC(=O)c1ccc2ccccc2n1,,MT-2,LAI Laboratory isolate,EC50,cytopathic effect / MTT,0.023 µM
Cc1cn([C@H]2C=C[C@@H](OCP(=O)(O)O)O2)c(=O)[nH]c1=O,,MT-2,IIIB,EC50,XTT,26 µM
CC(C)OC(=O)OCOP(=O)(CO[C@H](C)Cn1cnc2c(N)ncnc21)OCOC(=O)OC(C)C,RT-M184V,MT-2,M184V (3TC-resistant RT M184V),EC50,p24,0.025 µM
O=C1c2cccn2-c2ccc(Cl)cc2S(=O)(=O)N1c1ccc(Cl)cc1,,MT-4,IIIB,EC50,cytopathic effect / MTT,>30 µM
Cc1cn([C@H]2C[C@H](N=[N+]=[N-])[C@@H](CO)O2)c(=O)[nH]c1=O,,MT-4,RF,EC50,p24 / RT activity,0.085 µM
c1cc(CN2CCCNCCNCCCNCC2)ccc1CN1CCCNCCNCCCNCC1,,MT-4,NL4-3 D-CA-resistant,EC50,,0.02 µM
CCn1c(=O)c(C)cn([C@@H]2O[C@H](CO[Si](C)(C)C(C)(C)C)C3(OS(=O)(=O)C=C3N)[C@H]2O[Si](C)(C)C(C)(C)C)c1=O,,MT-4,Recombinant wild type,EC50,cytopathic effect / MTT,0.06 µM
CC(C)CN(C[C@@H](O)[C@H](Cc1ccccc1)NC(=O)[C@H](CC(N)=O)NC(=O)c1ccc2ccccc2n1)C(=O)NC(C)(C)C,,MT-2,RF,EC50,,0.044 µM
Cc1cn([C@H]2C[C@H](N=[N+]=[N-])[C@@H](CO)O2)c(=O)[nH]c1=O,,MT-4,IIIB,EC50,MTT,0.007 µM
Cc1c(O)cccc1C(=O)N[C@@H](CSc1ccccc1)[C@H](O)CN1C[C@H]2CCCC[C@H]2C[C@H]1C(=O)NC(C)(C)C,PR-L10I I15V K20R M36I M46L I54V K55R I62V L63P K70Q V82A L89M,PBMC,Clinical isolate,EC50,p24,0.33 µM
CCO/N=C(\c1ccc(Br)cc1)C1CCN(C2(C)CCN(C(=O)c3c(C)cc[n+]([O-])c3C)CC2)CC1,,PBMC,ADA-M Clinical isolates,EC50,,<0.025 µM
CC(C)c1nc(CN(C)C(=O)N[C@H](C(=O)N[C@@H](Cc2ccccc2)C[C@H](O)[C@H](Cc2ccccc2)NC(=O)OCc2cncs2)C(C)C)cs1,PR-L10I I15V K20R M36I M46L I54V K55R I62V L63P K70Q V82A L89M,PBMC,Clinical isolate,EC50,p24,>1 µM
C1CNCCNCCCN(CCCN2CCCNCCNCCCNCC2)CCNC1,,HuT-78 + HUT 78,IIIB,EC90,antigen,3.98 µM
Nc1ccn([C@H]2CC[C@@H](CO)O2)c(=O)n1,RT-M184V,HT4 + HT4 LacZ-1,184V (RT-M184V),EC50,,0.8 µM
Cc1ccnc2c1NC(=O)c1cccnc1N2C1CC1,,MT-4,IIIB Recombinant wild type,EC50,cytopathic effect / MTT,0.019 µM
CCC[C@@H](c1ccc(C(F)(F)F)cc1)N1CCN(C2(C)CCN(C(=O)c3c(C)ncnc3C)CC2)C[C@@H]1C,,PBMC,RU570 Clinical isolates,EC50,,<0.00043 µM
CCc1cc(NCc2nc3c(C)ccc(C)c3o2)c(=O)[nH]c1C,,MT-4,MN,EC50,p24,<0.05 µM
Nc1ccn([C@H]2CC[C@@H](CO)O2)c(=O)n1,RT-L74V T215Y K219Q,PBMC,,EC50,p24,0.32 µM
Nc1ccn([C@H]2CC[C@@H](CO)O2)c(=O)n1,,CD4+HELA + HeLa,RTMC,EC50,plaque count,0.1 µM
Nc1nc(N2CCOCC2)c2ncn(CCOCP(=O)(O)O)c2n1,,MT-4,IIIB,EC50,cytopathic effect / MTT,15 µg/mL
CC(C)=CCN1C(C)C(=O)N(C)c2ccc(Cl)cc2S1(=O)=O,,MT-4,IIIB,EC50,cytopathic effect / MTT,14 µM
Cc1cn([C@@H]2O[C@H](CO[Si](C)(C)C(C)(C)C)C3(OS(=O)(=O)C=C3N)[C@H]2O[Si](C)(C)C(C)(C)C)c(=O)n(C)c1=O,,CEM,IIIB WT,EC50,syncytia,0.05 µM

3 of the rows above, restated:

{"compound": "Cc1ccnc2c1NC(=O)c1cccnc1N2C1CC1", "mutations": "RT-D67N K70R L100I T215Y K219Q", "cell line": "CEM + CEM-SS", "strain": "4XAZT+L100I (RT D67N K70R L100I T215Y K219Q)", "endpoint": "EC50", "method": "cytopathic effect / XTT", "value": "0.03 µM"}
{"compound": "CC(C)(C)NC(=O)[C@@H]1C[C@@H]2CCCC[C@@H]2CN1C[C@@H](O)[C@H](Cc1ccccc1)NC(=O)[C@H](CC(N)=O)NC(=O)c1ccc2ccccc2n1", "cell line": "MT-2", "strain": "LAI Laboratory isolate", "endpoint": "EC50", "method": "cytopathic effect / MTT", "value": "0.023 µM"}
{"compound": "Cc1cn([C@H]2C=C[C@@H](OCP(=O)(O)O)O2)c(=O)[nH]c1=O", "cell line": "MT-2", "strain": "IIIB", "endpoint": "EC50", "method": "XTT", "value": "26 µM"}